Experimental data from the supplement of paper PMC9931576.
Numbering of substitutions follows the chain as printed. Human monoclonal antibodies against the spike receptor-binding domain (heavy:light variable regions). IC50 against pseudoviruses bearing the spike of naturally observed variants; lower = stronger; >10 µg/ml means not reached at the top dose. No active / inactive call. The stated detection limit is 0.0005 µg/ml; values near or below 0.001 µg/ml lie at the floor of the assay.

B1: XGv-412 (protein)
chain 1: QVQLVQSGSELKKPGASVRVSCKASGYNFNSYTMNWVRQAPGQGLEWMGWINTYTGIPTYAQGFTGRFVFSLDTSVTTAFLQISGLKAEDTAVYYCARGMDYDILTGSDHWGQGTLVTVSS
chain 2: DIVMTQSPLSLPVTPGEPATISCRSSQSLLHSNGNNYLDWYLQKPGQSPQLLIYLGSIRASGVPDRFSGSGSGTDFTLKISRVEAVDVGVYYCMQALQTPWTFGQGTKVEIK
B2: XGv-345 (protein)
chain 1: QVQLQESGPGLVKPSQTLSLTCTVSGGSIRSGSYYWSWIRQPAGKGLEWIGRVYTSGSTNYNPSLKTRVTISLETSKNHFSLKLSSVTAADTAVYYCARGEWEEDFALWGRGTLVTVSS
chain 2: DIQMTQSPSSLSASVGDRVTITCRASQSIASHLNWYQQKPGKAPKLLIYGASTLQSGVPSRFSGSGSGTAFTLTISSVQPEDFATYYCQQSYSAITFGQGTRLEIK
B3: XGv-402 (protein)
chain 1: QVQLVESGGGVVQPGRSLRLSCAASGFTFNNYAMHWVRQAPGKGLEWVAVISYDGSNEFYLDSVKGRFAISRDNSKNTLYLQTNSLRGEDTAVYYCARESRRGADYWGQGTLVTVSS
chain 2: DIQMTQSPSSLSASVGDRVTITCRASQIISNYLNWYQQKPGKAPKLLIYAASSLQSGVPSRFSGSGSGTDFTLTISSLQPEDSATYYCQQSFSPLWTFGPGTKVEIK
B4: XGv-405 (protein)
chain 1: EVQLVESGGGLIQPGGSLRLSCVASEIIVSRNYMSWVRQAPGEGLEWVSSIYSGGSTYYGDSVKGRFTISRDSSKNTLYLQMNNVRAEDTAVYYCARDSPHRPGGIWGQGTLVTVSS
chain 2: DIQMTQSPPSLSASVGDRVTITCQASQDINNYLNWYQHKPGKAPKLLIYDASNLEPGVPSRFSGSRSGTDFTFTISSLQPEDIATYFCQQYDNLPCTFGGGTKVEIK
B5: XGv-355 (protein)
chain 1: QVQLVQSGSELKKPGASVKVSCKASGYTFTTDAMNWVRQAPGQGLEWMGWINTNTGNPTYAQGFTGRFVFSLDTSVSTAYLQISSLKAEDTAVYYCARGGPPYGSGWYVGGVYYGYGMDVWGQGTTVTVSS
chain 2: QSALTQPASVSGSPGQSITISCTGTSSDVGLYNYVSWYQQHPGKAPKLMIYDVSHRPSGVSNRFSASKSGNTASLTISGLQAEDEADYYCSSYTSSSTLVFGGGTKLTVL
B6: XGv-420 (protein)
chain 1: QVQLQESGPGLVKPSGTLSLTCAVSGGSINSNNWWSWVRQPPGKGLEWIGEIYHNGNTNYNPSLKSRVTISVDTSKNQFSLRLSSVTAADTAVYYCARGDSLDWFDPWGQGTLVTVSS
chain 2: B5 chain 2 with L31S, H41L, H55N, A66G, G103T, L107V
B7: XGv-416 (protein)
chain 1: QLQLQESGPGLVKPSETLSLTCTVSGGSISSSDYYWGWIRQPPGKGLEWIGSIYYSGYTYYNPSLKSRVTISVDTSKNQFSLKLRSVTAADTAVYYCARHSGILFYDSSGFDYWGQGTLVTVSS
chain 2: EIVLTQSPGTLSLSPGERASLSCRASQSISSGFLAWYQQKPGQAPRLLIFGASSRATGIPDRFSGSGSGTAFTLTISRLEPEDFAVYYCQQYGTSPLTFGGGTKVEIK

Key:
Assay in all cases: pseudovirus neutralization IC50; higher = weaker neutralization
[1] = target: SARS-CoV-2 Omicron BA.1 spike pseudovirus
Experimental: (§1)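 Single-round VSV luciferase pseudovirus mixed with antibody dilutions for 1 h and put on Huh-7 cells for about a day; IC50 from the dose curve.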

[2] = target: SARS-CoV-2 Omicron BA.2 spike pseudovirus
Experimental: as §1

[3] = target: SARS-CoV-2 Omicron BA.2.75 spike pseudovirus
Experimental: as §1

[4] = target: SARS-CoV-2 Omicron BA.5 spike pseudovirus
Experimental: as §1

[5] = target: SARS-CoV-2 Omicron BQ.1.1 spike pseudovirus
Experimental: as §1

[6] = target: SARS-CoV-2 Omicron XBB spike pseudovirus
Experimental: as §1

[7] = target: SARS-CoV-2 early D614G spike pseudovirus
Experimental: as §1

Binder	pseudovirus neutralization IC50 [1] [µg/mL]	pseudovirus neutralization IC50 [2] [µg/mL]	pseudovirus neutralization IC50 [3] [µg/mL]	pseudovirus neutralization IC50 [4] [µg/mL]	pseudovirus neutralization IC50 [5] [µg/mL]	pseudovirus neutralization IC50 [6] [µg/mL]	pseudovirus neutralization IC50 [7] [µg/mL]
B1	> 10	> 10	> 10	> 10	> 10	> 10	0.0036
B2	0.22	0.0536	0.0533	0.0884	> 10	> 10	0.0769
B3	> 10	> 10	0.146	> 10	> 10	> 10	0.0428
B4	0.0973	0.0221	0.0249	0.0422	0.0737	0.0351	0.00377
B5	> 10	> 10	> 10	> 10	> 10	> 10	> 10
B6	> 10	0.336	> 10	0.331	> 10	> 10	0.0235
B7	> 10	> 10	> 10	> 10	> 10	> 10	2.13
